From ChEMBL document CHEMBL5370550, “Structure-guided optimization of adenosine mimetics as selective and potent inhibitors of coronavirus nsp14 N7-methyltransferases” (Eur J Med Chem, 2023)
Active and inactive are the calls of the source. No cut-off for these calls is given here.

molecular target: Nonstructural protein 5 (Dengue virus) (UniProt V5TFZ2); conditions: dengue virus type 3; dose 5.0 µM, time 30.0 min

Row | Compound | inhibition
1 | CNc1ncnc2c1ncn2[C@@H]1O[C@H](CNS(=O)(=O)c2ccc(OC)c(C#N)c2)[C@@H](O)[C@H]1O | inactive
2 | CCN(C[C@H]1O[C@@H](n2cnc3c(NC)ncnc32)[C@H](O)[C@@H]1O)S(=O)(=O)c1ccc(OC)c(C#N)c1 | 80.2%
3 | COc1ccc(S(=O)(=O)N(C)C[C@H]2O[C@@H](n3cc(C#Cc4ccccc4)c4c(N)ncnc43)[C@H](O)[C@@H]2O)cc1C#N | inactive
4 | COc1ccc(S(=O)(=O)N(C)C[C@H]2O[C@@H](n3cc(C#Cc4cnc5ccccc5c4)c4c(N)ncnc43)[C@H](O)[C@@H]2O)cc1C#N | inactive
